Pooled drug test results. Numbers come from NIAID ChemDB, via PubChem.

All rows: growth or infection tests; agent: Cryptosporidium parvum

An empty or dashed field is not shown. Rows are shuffled and stem from different studies. Percent inhibition refers to the dose given; in toxicity tests it is the harm to the cells. ECn is the concentration giving n% inhibition of infection, replication or growth.

SMILES,cells,read by,endpoint,dose,strain or isolate,value
N#CC(c1ccc(Cl)cc1)c1c(Cl)cc(-n2ncc(=O)[nH]c2=O)cc1Cl,L929,-,inhibition,0.032 µg/mL,Calf isolate,7.52%
O=[N+]([O-])c1cc(C(F)(F)F)cc([N+](=O)[O-])c1N1CCCCC1,MDCK cells,ELISA / luminescence,EC50,-,-,2.1 µM
Cc1cn([C@@H]2O[C@H](CO)[C@@H](O)[C@@H]2O)c(=O)[nH]c1=O,-,-,inhibition,10 µg/mL,-,0%
Cc1cn([C@H]2C[C@H](N=[N+]=[N-])[C@@H](CO)O2)c(=O)[nH]c1=O,L929,-,inhibition,0.8 µg/mL,Calf isolate,-14.65%
CCCN(CCC)c1c([N+](=O)[O-])cc(C(=O)NC)cc1[N+](=O)[O-],MDCK cells,ELISA / luminescence,EC50,-,-,4.7 µM
NC(=O)c1nc[nH]c1C(N)=O,L929,-,inhibition,4 µg/mL,Human isolate,47.43%
O=C(O)P(=O)(O)O,-,-,inhibition,100 µg/mL,-,0%
CCCN(CCC)c1c([N+](=O)[O-])cc(C(=O)O)cc1[N+](=O)[O-],MDCK cells,ELISA / luminescence,EC50,-,-,5.8 µM
NC[C@@H]1O[C@H](O[C@H]2[C@@H](O)[C@H](O[C@@H]3[C@@H](O)[C@H](N)C[C@H](N)[C@H]3O[C@H]3O[C@H](CO)[C@@H](O)[C@H](O)[C@H]3N)O[C@@H]2CO)[C@H](N)[C@@H](O)[C@@H]1O,-,-,inhibition,25 µg/mL,-,28%
O=S(=O)(F)Cc1ccccc1,-,-,inhibition,3000 µM,-,60%
CC(C)[C@H](NC(=O)[C@H](CCCN=C(N)N)NC(=O)N[C@@H](Cc1ccccc1)C(=O)O)C(=O)N[C@H](C=O)CCCN=C(N)N,-,cell count / microscopy,inhibition,10 µg/mL,-,46.9%
CCCNc1c([N+](=O)[O-])cc(C(F)(F)F)cc1[N+](=O)[O-],MDCK cells,ELISA / luminescence,EC50,-,-,1.39 µM
CCCCc1cc2c(=O)c(C(=O)OC)c[nH]c2cc1OCc1ccccc1,L929,-,inhibition,0.032 µg/mL,Calf isolate,-10%
O=[N+]([O-])c1cc(C(F)(F)F)cc([N+](=O)[O-])c1Nc1ccccc1,MDCK cells,ELISA / luminescence,EC50,-,-,0.12 µM
CO[C@@H]1C[C@@H](C[C@H]2CC[C@H](C)[C@H]([C@@H](C)C(=O)O)O2)O[C@]2(O[C@](C)([C@H]3CC[C@@](C)([C@@H]4O[C@@H]([C@H]5O[C@@](O)(CO)[C@H](C)C[C@@H]5C)C[C@@H]4C)O3)C[C@H]2C)[C@@H]1C,L929,-,inhibition,0.8 µg/mL,Calf isolate,66.14%
Cc1cn([C@H]2C[C@H](N=[N+]=[N-])[C@@H](CO)O2)c(=O)[nH]c1=O,-,-,inhibition,10 µg/mL,-,12%
CN(C)[C@@H]1C(=O)C(C(N)=O)=C(O)[C@@]2(O)C(=O)C3=C(O)c4c(O)cccc4[C@@](C)(O)[C@H]3[C@H](O)[C@@H]12,L929,-,inhibition,0.8 µg/mL,Calf isolate,20.19%
Nc1ccn([C@@H]2O[C@H](CO)[C@@H](O)[C@@H]2O)c(=O)n1,-,-,inhibition,1 µg/mL,-,63%